Source: the supplement of paper PMC9931576
Human monoclonal antibodies against the spike receptor-binding domain (heavy:light variable regions). IC50 against pseudoviruses bearing the spike of naturally observed variants; lower = stronger; >10 µg/ml means not reached at the top dose. No active / inactive call. The stated detection limit is 0.0005 µg/ml; values near or below 0.001 µg/ml lie at the floor of the assay.

B1: COV2-2678 (protein)
chain 1: EVQLVESGGGVVRPGGSLRLSCAASGFIFDDYDMTWVRQAPGKGLEWVSGISWNGGNTGYADSVKGRFTISRDNAKNSLYLQMNSLRAEDTALYHCAVIMSPIPRYSGYDWAGGAFDIWGQGTMVTVSS
chain 2: SSELTQDPAVSVALGQTVRITCQGDSLRSYYASWYQQKPGQVPILVIYDKNNRPSGIPDRFSGSSSGNTASLTITGAQAEDEADYYCNSRDSSGNAVVFGGGTKLTVL
B2: BD56-1772 (protein)
chain 1: QVQLVQSGAEVKRPGSSVKVSCKASGGTFSSYPITWVRQAPGLGPEWMGSIIPILGAGDYAQSLQGRVTITADKSTGTAFMELSSLRSADTAVYYCALARGYSASGSSYYFDNWGQGTLVTVSS
chain 2: QSVLTQPPSVSGAPGQRVTISCTGSSSNIGAGYDVHWYQQLPGAAPKLLIYANTNRPSGVPDRFSGSKSGTSASLAITGLQAEDEADYYCQSYDSSLSGSVFGGGTKLAVL
B3: BD56-1762 (protein)
chain 1: EVQLVESGGGLVQTGRSLRLSCTASGFPFDDYAIHWVRQAPGKGLEWVSGISWNGGVIGYADSLKGRCIISRDNAKNSLYLQMYSLRPEDTALYYCVKDMSGGDHQYYFDYWGQGTLVTVSS
chain 2: SYVLTQAPSVSVAPGETARITCGGNSIGSKSVHWYQQRPGQAPVLVVYDDNDRPSGIPERFSGSNSGNTATLTISRVEAGDEADYYCQVWDRSSDLYVFGTGTKVTVL
B4: BD56-1755 (protein)
chain 1: EVQLLESGGGLVQPGGSLRLSCEASGFSFSSSVMNWVRQAPGEGLEWVSSITGTGGSTFYADSVKGRFTVSRDNSRNTLYLQMNSLRAGDTAVYFCARDQGFLEWLLTDYFYDYHMDVWGKGTTVTVSS
chain 2: DVVMTQSPLSLSVTLGQPASISCRSSQSLVHSDGNTYLNWFQQRPGQSPRRLIYKVSNRDSGVPDRFSGSGSGTDFTLKVSRVEAEDVGVYYCMQGTHWPPAFGQGTKVEIK
B5: BD56-1770 (protein)
chain 1: QVQLVQSGTEVKNPGSSVKVSCKASGDTFSRFAINWVRQAPGQGPEWMGRIIPMFGMTNYAQKFQGTVSITADKSTSTAYMEVSGLRSEDTAVYYCATSAFYYGSRGYYLDSWGQGTLVTVSS
chain 2: EIVLTQSPGTLSLSPGERTTLSCRASQNVSSNYIAWYQQKPGQAPRLLIYGASNRATGIPARFSGSGSGTDFTLTISRLEPEDFAVYYCYQYHNSPRTFGQGTRVEIK
B6: BD56-1757 (protein)
chain 1: QITLKESGPTLVKPTQTLTLTCTFSGISLSTRAVGVGWIRQPPGKALEWLALIYWDDDKRYSPSLKSRLTITRDTSKKQVVLTMTNMDPMDTATYYCAHRLPGVPMGWFDPWGPGTLVTVSS
chain 2: SYVLTQPPSVSVAPGKTAMITCGGDSIGSKSVHWYRQKPGQAPVLVMYYDSERPSGIPERFSGSNSGPNPGETATLTISRVEAGDEADYYCQVWDIASDHPVFGGGTKLTVL
B7: BD56-1763 (protein)
chain 1: QLQLRESGPGLVKPSETLSLTCSVSAGSISSSIYYWGWIRQPPGKGLEWIVSIHYSGSTYNNPSLKSRVTISVDTSKNQLSLKLSSVTAADTAVYYCARHGVARFGNLPFFDYWGQGSLVTVSS
chain 2: SSVLTQPPSVSVAPGKTARITCGGNNIGSKSVHWYQQKPGQAPVLVMYYDSDRPSGIPERFSGSNSGNTATLTINRVEAGDEADYYCQVWDSSSDVVFGGGTKLTVL
B8: BD56-1760 (protein)
chain 1: QVQLQESGPGLVKPSQTLSLTCTVSGGSISSGGYYWSWVRQLPGKGLEWIGYIFYSGINYYNPSLKSRVTMSVDTSKNQFSLNLTSVTAADTAVYYCARDSSGGDDAFDIWGQGTLVTVSS
chain 2: DIQMTQSPSSLSASMGDRVTITCRASQDINNYLAWFQQKPGKAPKSLIYAASRLRSGVPSKFSGSGSGTDFTLTISSLQPEDFATYYCQQYNTYPYTFGQGTRLEIK
B9: BD56-1754 (protein)
chain 1: QVQLVQSGAEVKKPGSSVKVSCSASGDTFTRYAINWVRQAPGQGPEWMGRIIPMFGMSNYAQKFQGRVTMTADKSTRTAYMELNSLRNEDTAVFYCATSAYFSDSDGFYFEYWGRGTLVTVSS
chain 2: EIVLTQSPGTLSLSPGERATLSCRASETVDGNYLAWYQQKPGQAPRLLIYGASIRATGIPDRFSGSGSGTDFSLTISRLEPEDFAVYYCQQYAYSPRAFGQGTKVEIK
B10: BD56-1774 (protein)
chain 1: QVQLVESGGGVVQPGRSLRLSCAASGFSFSNYAIHWVRQAPGKALEWVSGISRDGSLTFYADSVKGRFTISRDNSKNTLYLQMNSLRAEDTAVFYCAREFDFGDYRPGWFDPWGQGTLVTVSS
chain 2: DIQMTQSPSSLSASVGDRVTITCRASQNINNYLNWYQQKPGKAPKLLIYAASSLQSGVPSRFSGSGSGTDFTLTISSLQPEDFATYYCQQSYGTPPWTFGQGTKVEIQ
B11: BD56-1765 (protein)
chain 1: QVQLVQSGAEVRKPGSSVKVSCKASGGTFSSYTFTWVRQAPGQGLEWMGRIIPILDISNYAQEFQGRVTITADKLSNTVYMELPSLISKDTAVYYCARERNAGHSSGSNYYFDPWGPGTLVTVSS
chain 2: QSVLTQPPSVSGAPGQRVTIPCTGSNSNIGAGYEVHWYQQLPGMSPKLLIYGDSNRPSGVPDRFSGSKSGTSASLAISGLQGEDEADYYCQSYDSGLSDSVFGGGTKLTVL
B12: BD56-1768 (protein)
chain 1: QVQLVQSGAEVKKPGSSVKVSCKPSGGTFSYTINWVRQAPGQGLEWMGGIITLLGVANYAQNFQGRVTITADKSSSTAYMELTSLRSEDTAVYYCAREWPNCSSTSCYRWWGQGTLVTVSS
chain 2: QSVLTQPPSVSGAPGQRVTISCTGSNSNIGAGYDVHWYQQLPGTAPKLLIYGNSNRPSGVPDRFSGSKSGTSASLAITGLQAEDEADYYCQSYDSSLSGSVFGGGTKLTVL

Molecular target: SARS-CoV-2 Omicron BA.1 spike pseudovirus
Assay: pseudovirus neutralization IC50; higher = weaker neutralization
Description: (§1)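 Single-round VSV luciferase pseudovirus mixed with antibody dilutions for 1 h and put on Huh-7 cells for about a day; IC50 from the dose curve.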

Row | Binder | pseudovirus neutralization IC50 [µg/mL]
1 | B1 | > 10
2 | B2 | 0.089
3 | B3 | 0.0103
4 | B4 | 2.38
5 | B5 | 0.144
6 | B6 | 0.523
7 | B7 | 0.0818
8 | B8 | 0.891
9 | B9 | 0.000889
10 | B10 | > 10
11 | B11 | 0.0575
12 | B12 | 0.0352

Molecular target: SARS-CoV-2 Omicron BA.2 spike pseudovirus
Assay: as above
Description: as §1

Row | Binder | pseudovirus neutralization IC50 [µg/mL]
13 | B1 | > 10
14 | B2 | 0.0399
15 | B3 | 0.00934
16 | B4 | 2.19
17 | B5 | 0.129
18 | B6 | 0.94
19 | B7 | 0.102
20 | B8 | 1.35
21 | B9 | 0.00187
22 | B10 | > 10
23 | B11 | 0.0312
24 | B12 | 0.0262

Molecular target: SARS-CoV-2 Omicron BA.2.75 spike pseudovirus
Assay: as above
Description: as §1

Row | Binder | pseudovirus neutralization IC50 [µg/mL]
25 | B1 | > 10
26 | B2 | 0.0805
27 | B3 | 0.00436
28 | B4 | 3.18
29 | B5 | 0.00279
30 | B6 | 0.409
31 | B7 | 0.0675
32 | B8 | 1.49
33 | B9 | 0.000725
34 | B10 | > 10
35 | B11 | 0.027
36 | B12 | 0.022

Molecular target: SARS-CoV-2 Omicron BA.5 spike pseudovirus
Assay: as above
Description: as §1

Row | Binder | pseudovirus neutralization IC50 [µg/mL]
37 | B1 | > 10
38 | B2 | 0.464
39 | B3 | 0.063
40 | B4 | 4.94
41 | B5 | > 10
42 | B6 | > 10
43 | B7 | > 10
44 | B8 | 6.41
45 | B9 | 2.87
46 | B10 | > 10
47 | B11 | > 10
48 | B12 | > 10

Molecular target: SARS-CoV-2 Omicron BQ.1.1 spike pseudovirus
Assay: as above
Description: as §1

Row | Binder | pseudovirus neutralization IC50 [µg/mL]
49 | B1 | > 10
50 | B2 | 1.28
51 | B3 | > 10
52 | B4 | 6.31
53 | B5 | > 10
54 | B6 | > 10
55 | B7 | > 10
56 | B8 | > 10
57 | B9 | > 10
58 | B10 | > 10
59 | B11 | > 10
60 | B12 | > 10

Molecular target: SARS-CoV-2 Omicron XBB spike pseudovirus
Assay: as above
Description: as §1

Row | Binder | pseudovirus neutralization IC50 [µg/mL]
61 | B1 | > 10
62 | B2 | 1.08
63 | B3 | 2.44
64 | B4 | 3.24
65 | B5 | > 10
66 | B6 | 1.56
67 | B7 | > 10
68 | B8 | > 10
69 | B9 | > 10
70 | B10 | > 10
71 | B11 | > 10
72 | B12 | 1.58

Molecular target: SARS-CoV-2 early D614G spike pseudovirus
Assay: as above
Description: as §1

Row | Binder | pseudovirus neutralization IC50 [µg/mL]
73 | B1 | 0.424
74 | B2 | 0.366
75 | B3 | 0.0117
76 | B4 | 1.21
77 | B5 | 0.00294
78 | B6 | 1.08
79 | B7 | 0.116
80 | B8 | 0.602
81 | B9 | 0.000613
82 | B10 | > 10
83 | B11 | 0.241
84 | B12 | 0.139
